The text below walks through data of patent publication US20160024155A1 (published 2016).

The target of this assay is A/South Carolina/1/1918 (H1N1) hemagglutinin ectodomain (Influenza A virus A/South …).

Substitutions are numbered along the chain they refer to.

B1: HB36 clone A2 ([change], [change], [change]) (designed binder)
chain: MSNAMDGQQLNRLLLEWIGAWDPFGLGKDAYDVEAEAVLQAVYETELAFDLAMRIMWIYAFAFNRPILFLHAQKLARRLLELKQAASSPLPLE
For the molecule B1, the “fold increase in binding affinity relative to original design (HB36)” value was over 10 fold.

B2: HB36 clone B2 ([change]) (designed binder)
chain: B1 chain with L47E, L68P, L70P
As to B2, the “fold increase in binding affinity relative to original design (HB36)” value is over 10 fold.

B3: HB36 clone A4 ([change], [change]) (designed binder)
chain: B1 chain with L47R, L68P
For B3, the “fold increase in binding affinity relative to original design (HB36)” value was over 10 fold.

B4: HB36 clone D3 ([change], [change]) (designed binder)
chain: B1 chain with G7S, L47N, L68P, L70P
For the molecule B4, the “fold increase in binding affinity relative to original design (HB36)” value was over 10 fold.

B5: HB36 clone C3 ([change]) (designed binder)
chain: B1 chain with L47H, L68P, L70P
In the case of B5, the “fold increase in binding affinity relative to original design (HB36)” value was over 10 fold.

B6: HB36 clone B6 ([change]) (designed binder)
chain: B1 chain with L47W, L68P, L70P
B6: the “fold increase in binding affinity relative to original design (HB36)” value was over 10 fold.

B7: HB36 clone E1 ([change], [change]) (designed binder)
chain: B1 chain with G19C, L47Y, L68P, L70P
For B7, the “fold increase in binding affinity relative to original design (HB36)” value is over 10 fold.

B8: HB36 clone C4 ([change], [change]) (designed binder)
chain: B1 chain with L47H, L68P, L70S
Take B8: the “fold increase in binding affinity relative to original design (HB36)” value is over 10 fold.

B9: HB36 clone B3 ([change]) (designed binder)
chain: B1 chain with L47R, L68P, L70P
Regarding B9, the “fold increase in binding affinity relative to original design (HB36)” value was over 10 fold.
